Paper PMC9003574 (ACS Pharmacology & Translational Science, 2022)
Like-named read-outs stand apart in the source and are kept apart here.

Key:
SARS-CoV-2 nsp13 [1] = target: T1, SARS-CoV-2 nsp13 (Severe acute respiratory syndrome coronavirus 2, UniProt P0DTD1); details: read-out: unwinding IC50; without BSA/TCEP
SARS-CoV-2 nsp13 [2] = target: T1, SARS-CoV-2 nsp13; format: biochemical; details: read-out: ATPase IC50; without BSA/TCEP, no nucleic acid

Substance: kaempferol-3-O-rutinoside
- IC50 (SARS-CoV-2 nsp13 [1]): > 30 µM
- IC50 (SARS-CoV-2 nsp13 [2]): > 30 µM
